Among the data in US6545007B2, “Methods for inhibiting the transmission of HIV using topically applied substituted 6-benzyl-4-oxopyrimidines” (Idenix (Cayman) Limited, priority 2000, dated 2003) are SI values, retold here.

Where only a bound is given, the exact number is not on record here.

This series has as its system HIV-1 (IIIB strain). It counts as cell-based. The conditions noted are these: selectivity index (CC50/EC50). On the procedure: Compounds. Compounds were solubilized in DMSO at 200 mM and then diluted into culture medium.
Cells and viruses. MT-4, C8166,H9/IIIB and CEM cells were grown at 37° C. in a 5% CO2 atmosphere in RPMI 1640 medium, supplemented with 10% fetal calf serum (FCS), 100 IU/mL penicillin and 100 μg/mL streptomycin. Cell cultures were checked periodically for the absence of mycoplasma contamination with a MycoTect Kit (Gibco). Human immunodeficiency virus type-I (HIV-1, IIIB strain) was obtained from supernatants of persistently infected H9/IIIB cells.
HIV Titration. Titration of HIV was performed in C8166 cells by the standard limiting dilution method (dilution 1:2, four replica wells per dilution) in 96-well plates. The infectious virus titre was determined by light microscope scoring of cytopathicity after 4 days of incubation and the virus titres were expressed as CCID50/mL.
Anti-HIV Assays. Activity of the compounds against HIV-1 and HIV-2 multiplication in acutely infected cells was based on the inhibition of virus-induced cytopathicity in MT-4 and C8166 cells, respectively. Briefly, 50 μL of culture medium containing 1×10^4 cells were added to each well of flat-bottom microtiter trays containing 50 μl of culture medium with or without various concentrations of the test compounds. Then 20 μL of an HIV suspension containing 100 CCID50 were added. After a 4-day incubation at 37° C., the number of viable cells was determined by the 3-(4,5-dimethylthiazol-[…])-2,5-diphenyltetrazolium bromide (MTT) method. Cytotoxicity of the compounds was evaluated in parallel with their antiviral activity. It was based on the viability of mock-infected cells, as monitored by the MTT method.
Take `Cc1c(C(C)c2c(F)cccc2F)nc(SC2CCCC2)[nH]c1=O` (single isomer, unassigned) [MC 1047+]: the SI is recorded as >100,000. With `Cc1c(C(C)c2c(F)cccc2F)nc(SC2CCCC2)[nH]c1=O` (single isomer, unassigned) [MC 1047−] the figure was >286. With `Cc1c(C(C)c2c(F)cccc2F)nc(SC(C)C)[nH]c1=O` (stereo not drawn) [MC 1137] the figure was 28,571; with `CSCSc1nc(Cc2ccccc2)cc(=O)[nH]1` [MC 1140], >10.

In the case of `CSCSc1nc(Cc2c(F)cccc2F)c(C(C)C)c(=O)[nH]1` [MC 1145, 6-(2,6-Difluorophenyhnethyl)-3,4-dihydro-5-(1-methylethyl)-2-(methylthiomethyl) thiopyrimidin-4-(3H)-one], the SI is on record as 2,000. For `Cc1c(C(C)c2c(F)cccc2F)nc(SCC(C)C)[nH]c1=O` (stereo not drawn) [MC 1153] the value was >20,000; for `CCc1c(Cc2c(F)cccc2F)nc(SCSC)[nH]c1=O` [MC 1157], 454; for `CSCSc1nc(Cc2c(F)cccc2F)cc(=O)[nH]1` [MC 1161, 6-(2,6-Difluorophenyhnethyl)-3,4-dihydro-2-(methylthiomethyl)thiopyrimidin-4-(3H)-one], >250. For `CSCSc1nc(Cc2c(F)cccc2F)c(C)c(=O)[nH]1` [MC 1162, 6-(2,6-Difluorophenylmethyl)-3,4-dihydro-5-methyl-2-(methylthiomethyl)thiopyrimidin-4(3H)-one] the value was 250; for `CNc1nc(C(C)c2c(F)cccc2F)c(C)c(=O)[nH]1` (stereo not drawn) [MC 1170], >6,666.

Consider `Cc1c(C(C)c2c(F)cccc2F)nc(SC2CCCCC2)[nH]c1=O` (stereo not drawn) [MC 1174], for which the SI is listed as >11,111. For `CCCCSc1nc(C(C)c2c(F)cccc2F)c(C)c(=O)[nH]1` (stereo not drawn) [MC 1175] the value was 14,000.

For the compound `CNc1nc(C(C)c2c(F)cccc2F)cc(=O)[nH]1` (stereo not drawn) [MC 1178], the SI amounted to 964.

As to `CC(c1cc(=O)[nH]c(NC2CCCCC2)n1)c1c(F)cccc1F` (stereo not drawn) [MC 1180], the SI is given as 2,545.

Regarding `Cc1c(C(C)c2c(F)cccc2F)nc(NC2CCCCC2)[nH]c1=O` (stereo not drawn) [MC 1181], the SI is recorded as 2,231. In the case of `CN(C)c1nc(Cc2c(F)cccc2F)cc(=O)[nH]1` [MC 1182, 6-(2,6-Difluorophenylmethyl)-3,4-dihydro-2-N,N-dimethylaminopyrimidin-4-(3H)-one], the SI is >4,000. For `CN1CCN(c2nc(Cc3c(F)cccc3F)cc(=O)[nH]2)CC1` [MC 1183] the value was >28; for `CCCCNc1nc(Cc2c(F)cccc2F)c(C)c(=O)[nH]1` [MC 1185], >10,000; for `CCCCNc1nc(C(C)c2c(F)cccc2F)c(C)c(=O)[nH]1` (stereo not drawn) [MC 1187], 8,300. For `O=c1cc(Cc2c(F)cccc2F)nc(N2CCOCC2)[nH]1` [MC 1188] the value was >333; for `CCCCNc1nc(C(C)c2c(F)cccc2F)cc(=O)[nH]1` (stereo not drawn) [MC 1189], 1,730; for `CCCNc1nc(C(C)c2c(F)cccc2F)cc(=O)[nH]1` (stereo not drawn) [MC 1190], 5,150. Consider `CC(C)Nc1nc(C(C)c2c(F)cccc2F)cc(=O)[nH]1` (stereo not drawn) [MC 1191], for which the SI was 3,830.

For the compound `CCC(C)Nc1nc(C(C)c2c(F)cccc2F)cc(=O)[nH]1` (stereo not drawn) [MC 1192], the SI is given as 2,150. With `O=c1cc(Cc2c(F)cccc2F)nc(N2CCSCC2)[nH]1` [MC 1193] the figure was >4,000; with `O=c1cc(Cc2c(F)cccc2F)nc(N2CCCCC2)[nH]1` [MC 1194], >10,000. With `Cc1c(Cc2c(F)cccc2F)nc(N(C)C)[nH]c1=O` [MC 1195] the figure was >10,000; with `O=c1cc(Cc2c(F)cccc2F)nc(N2CCCC2)[nH]1` [MC 1196], >95; with `CCN(CC)c1nc(Cc2c(F)cccc2F)cc(=O)[nH]1` [MC 1202], >769.

Take `Cc1c(Cc2c(F)cccc2F)nc(N2CCN(C)CC2)[nH]c1=O` [MC 1203]: the SI is >555. With `CCCN(CCC)c1nc(Cc2c(F)cccc2F)cc(=O)[nH]1` [MC 1204], the SI is reported as >53. Take `Cc1c(Cc2c(F)cccc2F)nc(N2CCOCC2)[nH]c1=O` [MC 1205]: the SI was >4,255. With `Cc1c(Cc2c(F)cccc2F)nc(N2CCSCC2)[nH]c1=O` [MC 1206] the figure was >2,222.
